A mixed list of measured activities; the numbers were collected in NIAID ChemDB.

Common to all: tests in culture; agent: Mycobacterium tuberculosis

MIC50, MIC90 and the like: level of inhibition, or share of isolates inhibited.

smiles	strain or isolate	method	read-out	dose	result
CCOC(=O)Cc1csc(NC(=O)C(SC(=S)N2CCN(C)CC2)c2ccccc2)n1	H37Rv	-	MIC	-	>156 µg/mL
NNC(=O)c1ccncc1	H37Rv	-	MIC	-	0.02 µg/mL
Nc1nc(-c2ccccc2)c(N=Nc2cccc([N+](=O)[O-])c2)s1	H37Rv	BACTEC	MIC bound	-	>6.25 µg/mL
CC1N=C(N)NC(c2ccc(F)cc2)=C1C(=O)Nc1ccc(S(=O)(=O)c2ccc(NC(=O)C3=C(c4ccc(F)cc4)NC(N)=NC3C)cc2)cc1	INH resistant	-	MIC	-	0.1 µM
CCCSc1nnc(-c2ncc([N+](=O)[O-])n2C)s1	H37Rv	-	inhibition	6.25 µg/mL	97%
O=C(/C=C/c1ccc([N+](=O)[O-])cc1)c1ccc(NCc2nc3ccccc3[nH]2)cc1	H37Rv	resazurin	inhibition	6.25 µg/mL	18%
CCN(C(=O)COc1cc2c(O)c3c(O)c(C)c4c(c13)C(=O)[C@@](C)(O/C=C/[C@H](OC)[C@@H](C)[C@@H](OC(C)=O)[C@H](C)[C@H](O)[C@H](C)[C@@H](O)[C@@H](C)/C=C/C=C(/C)C(=O)N2)O4)N1CCOCC1	-	-	EC50	-	0.37 µg/mL
CCOC(=O)Cc1csc(NC(=O)C(SC(=S)NNC(=O)c2ccncc2)c2ccccc2)n1	H37Rv	-	MIC	-	>156 µg/mL
O=C(CNC(=O)Nc1n[nH]c(=S)s1)NNC(=S)Nc1ccccc1	H37Rv	BACTEC	inhibition	12.5 µg/mL	2%
O=C(CSc1nnc(-c2ccccn2)s1)N/N=c1/scc(-c2cccc(Cl)c2)n1-c1ccccc1	Clinical isolate 331	-	MIC	-	>80 µg/mL
CC(=O)N1C(=O)N(Cl)C(=O)C1(C)c1cccs1	H37Rv	BACTEC	MIC bound	-	>12.5 µg/mL
CN(C)c1ccc(/C=C/C(=O)c2cnccn2)cc1	H37Rv	-	EC50	-	>12.5 µg/mL
CC(C)C1/C(=N/O)CC(c2ccccc2)N(N=O)C1c1ccccc1	H37Rv	resazurin	MIC bound	-	>6.25 µg/mL
O=[N+]([O-])c1ccc(CSc2nnc(-c3ccc([N+](=O)[O-])o3)s2)cc1	H37Rv	-	inhibition	6.25 µg/mL	99%
CCN(CC)CCNc1n[nH]c(=O)c2ccccc12	-	BACTEC	inhibition	0.5 µM	0%
CO[C@H]1/C=C/O[C@@]2(C)Oc3c(C)c(O)c4c(O)c(c(/C=N/N5CCN(C)CC5)c(O)c4c3C2=O)NC(=O)/C(C)=C\C=C\[C@H](C)[C@H](O)[C@@H](C)[C@@H](O)[C@@H](C)[C@H](OC(C)=O)[C@@H]1C	H37RV (RIF-R)	-	MIC	-	250 µg/mL
NC1[C@H]2CN(c3nc4c(cc3F)c(=O)c(C(=O)O)cn4-c3ccc(F)cc3F)C[C@@H]12	206 isolates (susceptible)	-	MIC90	-	64 µg/mL
O=C1c2ccccc2C(=O)c2cc3nc4c5ccccc5c5ccccc5c4nc3cc21	H37Rv	BACTEC	MIC bound	-	>12.5 µg/mL
Cn1c([N+](=O)[O-])cnc1-c1nnc(SCc2ccc([N+](=O)[O-])cc2)s1	H37Rv	-	inhibition	6.25 µg/mL	0%
CCOC(=O)Cc1csc(NC(=O)C(SC(=S)N2CCCC2)c2ccccc2)n1	H37Rv	-	MIC	-	>156 µg/mL
Cc1c(F)c(N2CCNC(C)C2)cc2c1c(=O)c(C(=O)O)cn2C1CC1	44 isolates (resistant)	-	MIC90	-	2 µg/mL
c1ccc2c(c1)-c1ccccc1C21CCc2nc3c(nc2C1)CCC1(C3)c2ccccc2-c2ccccc21	H37Rv	BACTEC	MIC bound	-	>12.5 µg/mL
CCOC(=O)Cc1csc(NC(=O)C(SC(=S)N(CC)Cc2ccccc2)c2ccccc2)n1	H37Rv	-	MIC	-	>156 µg/mL
CO[C@H]1/C=C/O[C@@]2(C)Oc3c(C)c(O)c4c(O)c(cc(OCC(=O)NNCCO)c4c3C2=O)NC(=O)/C(C)=C\C=C\[C@H](C)[C@H](O)[C@@H](C)[C@@H](O)[C@@H](C)[C@H](OC(C)=O)[C@@H]1C	-	-	EC50	-	0.005 µg/mL
CCn1cc(C(=O)O)c(=O)c2cc(F)c(N3CCN(CN4C(=O)/C(=N\c5ncc(Cc6cc(OC)c(OC)c(OC)c6)c(N)n5)c5cc(Cl)ccc54)C(C)C3)c(F)c21	H37Rv	-	MIC	-	1.56 µg/mL
O=C(O)CCSC(=S)NCCNC(=S)SCCC(=O)O	H37Rv	resazurin	MIC bound	-	>6.25 µg/mL
CCCN(CCC)N(CCC)C(=O)COc1cc2c(O)c3c(O)c(C)c4c(c13)C(=O)[C@@](C)(O/C=C/[C@H](OC)[C@@H](C)[C@@H](OC(C)=O)[C@H](C)[C@H](O)[C@H](C)[C@@H](O)[C@@H](C)/C=C/C=C(/C)C(=O)N2)O4	-	-	EC50	-	0.09 µg/mL
COc1cc(Cc2cnc(/N=C3\C(=O)N(CN4CCN(c5c(F)cc6c(=O)c(C(=O)O)cn(C7CC7)c6c5F)CC4C)c4ccc(F)cc43)nc2N)cc(OC)c1OC	H37Rv	-	MIC	-	3.13 µg/mL
C=C(C)[C@@H]1CC[C@]2(C)CCC3(C)[C@H](CC[C@@H]4[C@@]5(C)CC[C@H](O)C(C)(C)[C@@H]5CC[C@]43C)[C@@H]12	H37Rv	BACTEC	MIC	-	12.5 µg/mL
O=C(/C=C/c1ccc(O)cc1)c1cnccn1	H37Rv	-	EC50	-	>12.5 µg/mL
Nc1cccc2c1C(=O)c1ccccc1C2=O	H37Rv	BACTEC	MIC bound	-	>12.5 µg/mL
COc1ccc(C2=C(C(=O)Nc3ccc(S(=O)(=O)c4ccc(NC(=O)C5=C(c6ccc(OC)c(O)c6)NC(N)=NC5C)cc4)cc3)C(C)N=C(N)N2)cc1O	H37Rv	-	MIC	-	1.94 µM
COc1ccc(CCc2cc(OC)c3ccccc3n2)cc1OC	MT5	-	MIC	-	77 µg/mL
CCCCN(C(=O)COc1cc2c(O)c3c(O)c(C)c4c(c13)C(=O)[C@@](C)(O/C=C/[C@H](OC)[C@@H](C)[C@@H](OC(C)=O)[C@H](C)[C@H](O)[C@H](C)[C@@H](O)[C@@H](C)/C=C/C=C(/C)C(=O)N2)O4)N(C)C	-	-	EC50	-	0.15 µg/mL
CC1N=C(N)NC(c2ccco2)=C1C(=O)Nc1ccc(S(=O)(=O)c2ccc(NC(=O)C3=C(c4ccco4)NC(N)=NC3C)cc2)cc1	H37Rv	-	MIC	-	0.59 µM
C=CCSc1nnc(-c2ncc([N+](=O)[O-])n2C)s1	H37Rv	-	inhibition	6.25 µg/mL	37%
O=C1C(N=Nc2ccc(Br)cc2)Sc2nc3ccccc3n21	H37Rv	BACTEC	MIC	-	≥12.5 µg/mL
CCCCN(C(=O)COc1cc2c(O)c3c(O)c(C)c4c(c13)C(=O)[C@@](C)(O/C=C/[C@H](OC)[C@@H](C)[C@@H](OC(C)=O)[C@H](C)[C@H](O)[C@H](C)[C@@H](O)[C@@H](C)/C=C/C=C(/C)C(=O)N2)O4)N(CCC)CCC	-	-	EC50	-	0.09 µg/mL
CC1N=C(N)NC(c2ccc(Cl)cc2)=C1C(=O)Nc1ccc(S(=O)(=O)c2ccc(NC(=O)C3=C(c4ccc(Cl)cc4)NC(N)=NC3C)cc2)cc1	INH resistant	-	MIC	-	3.2 µM
CO[C@H]1/C=C/O[C@@]2(C)Oc3c(C)c(O)c4c(O)c(cc(OCC(=O)N(C)N5CCCCC5)c4c3C2=O)NC(=O)/C(C)=C\C=C\[C@H](C)[C@H](O)[C@@H](C)[C@@H](O)[C@@H](C)[C@H](OC(C)=O)[C@@H]1C	-	-	EC50	-	9.09 µg/mL
CO[C@H]1/C=C/O[C@@]2(C)Oc3c(C)c(O)c4c(O)c(cc(O)c4c3C2=O)NC(=O)/C(C)=C\C=C\[C@H](C)[C@H](O)[C@@H](C)[C@@H](O)[C@@H](C)[C@H](OC(C)=O)[C@@H]1C	BCG	-	MIC	-	0.02 µg/mL
CCOC(=O)Cc1csc(NC(=O)CSC(=S)N2C(C)CCCC2C)n1	H37Rv	-	MIC	-	>156 µg/mL
CCCSc1nnc(-c2ccc([N+](=O)[O-])o2)s1	H37Rv	-	inhibition	6.25 µg/mL	74%
CC1=NN(C(=O)c2ccncc2)C(=O)C1N=Nc1ccc(C)c([N+](=O)[O-])c1	H37Rv	BACTEC	MIC bound	-	>12.8 µg/mL
CCn1cc(C(=O)O)c(=O)c2cc(F)c(N3CCNCC3)cc21	H37RV (INH-R)	-	MIC	-	31.2 µg/mL
CCCCN(C(=O)COc1cc2c(O)c3c(O)c(C)c4c(c13)C(=O)[C@@](C)(O/C=C/[C@H](OC)[C@@H](C)[C@@H](OC(C)=O)[C@H](C)[C@H](O)[C@H](C)[C@@H](O)[C@@H](C)/C=C/C=C(/C)C(=O)N2)O4)N1CCCCC1	-	-	EC50	-	0.09 µg/mL
CCCc1cnc(C(=O)/C=C/c2ccc(O)c(OC)c2)cn1	H37Rv	-	EC50	-	>12.5 µg/mL
CN=C(N)N/N=C(\C)c1ccc2sc3ccc(/C(C)=N/NC(N)=NC)cc3c2c1.Cl.Cl	H37Rv	BACTEC	inhibition	12.5 µg/mL	41%
CCCc1cnc(C(=O)/C=C/c2ccc(O)cc2)cn1	H37Rv	-	EC50	-	>12.5 µg/mL
CCCCCc1cc(OC)c2ccccc2n1	MT10	-	MIC	-	167 µg/mL
O=C(CSc1nnc(-c2ccccn2)s1)N/N=c1/scc(-c2ccccc2Cl)n1-c1ccccc1	Clinical isolate 331	-	MIC	-	>80 µg/mL
Cc1nc(N)c2ncn([C@@H]3O[C@H](CO)[C@@H](O)[C@H]3O)c2n1	Ciprofloxacin-resistant	-	MIC	-	6.25 µg/mL
CCCCc1cnc(C(=O)/C=C/c2ccccc2O)cn1	H37Rv	-	EC50	-	>12.5 µg/mL
CCOC(=O)Cc1csc(NC(=O)CSC(=S)N(CC)c2ccccc2)n1	H37Rv	-	MIC	-	>156 µg/mL
Cn1c([N+](=O)[O-])cnc1-c1nnc(SCc2ccccc2[N+](=O)[O-])s1	H37Rv	-	inhibition	6.25 µg/mL	0%
O=C(CSc1nnc(-c2ccccn2)s1)N/N=c1/scc(-c2ccccc2)n1-c1cccc(Cl)c1	Clinical isolate 180	-	MIC	-	80 µg/mL
O=c1[nH]c2nc(Cl)nc(Cl)c2[nH]1	H37Rv	BACTEC	inhibition	12.5 µg/mL	19%
CCN(C(=O)COc1cc2c(O)c3c(O)c(C)c4c(c13)C(=O)[C@@](C)(O/C=C/[C@H](OC)[C@@H](C)[C@@H](OC(C)=O)[C@H](C)[C@H](O)[C@H](C)[C@@H](O)[C@@H](C)/C=C/C=C(/C)C(=O)N2)O4)N1CCCCC1	-	-	EC50	-	0.045 µg/mL
Cc1ccc(-n2c(-c3ccccc3)cs/c2=N/NC(=O)CSc2nnc(-c3ccccn3)s2)cc1	Clinical isolate 190	-	MIC	-	40 µg/mL
CC(=O)NCC1CN(c2ccc(C(C)=O)cc2)C(=O)O1	H37RV (RIF-R)	-	MIC	-	0.97 µg/mL
CCOC(=O)CCC(NC(=O)c1ccc(N(CCC2CO2)S(=O)(=O)c2ccc(C)cc2)cc1)C(=O)OCC	H37Rv	BACTEC	MIC bound	-	>12.5 µg/mL
CC1N=C(N)NC(c2cccs2)=C1C(=O)Nc1ccc(S(=O)(=O)c2ccc(NC(=O)C3=C(c4cccs4)NC(N)=NC3C)cc2)cc1	INH resistant	-	MIC	-	6.23 µM
CCCCc1ccc(Nc2c(C#N)[n+]([O-])c3cc(Cl)ccc3[n+]2[O-])cc1	H37Rv	-	inhibition	12.5 µg/mL	99%
C=CC12c3c4cc(OC)cc3OC1C(OC(=O)c1ccc(-c3ccccc3)cc1)CCC2CC4	H37Rv	BACTEC	MIC bound	-	>12.5 µg/mL
O=C(CSc1nnc(-c2ccccn2)s1)N/N=c1/scc(-c2ccccc2)n1-c1ccccc1Br	Clinical isolate 331	-	MIC	-	>80 µg/mL
CC(C)(C)OC(=O)CC(NC(=O)OC(C)(C)C)C(=O)NC(Cc1ccccc1)C(N)=O	H37Rv	BACTEC	MIC bound	-	>12.5 µg/mL
CCn1cc(C(=O)O)c(=O)c2cc(F)c(N3CCN(CN4C(=O)/C(=N\c5ncc(Cc6cc(OC)c(OC)c(OC)c6)c(N)n5)c5cc(Br)ccc54)C(C)C3)c(F)c21	H37Rv	-	MIC	-	3.13 µg/mL
C[C@H]1CC[C@]2(NC1)O[C@H]1C[C@H]3[C@@H]4CC[C@H]5C[C@@H](O)CC[C@]5(C)[C@H]4CC[C@]3(C)[C@H]1[C@@H]2C	H37Rv	BACTEC	MIC	-	≥128 µg/mL
CCCCc1cnc(C(=O)/C=C/c2ccc(N(C)C)cc2)cn1	H37Rv	-	EC50	-	>12.5 µg/mL
Cc1ccc(C)n1-c1ccsc1C(=O)NNC(=O)C(Cl)=C(Cl)Cl	H37Rv	BACTEC	inhibition	12.5 µg/mL	21%
O=C(CSc1nnc(-c2ccccn2)s1)N/N=c1/scc(-c2ccccc2)n1-c1ccc([N+](=O)[O-])cc1	Clinical isolate 190	-	MIC	-	>80 µg/mL

A second listing of 8 rows from above:

| smiles | strain or isolate | method | read-out | dose | result |
|---|---|---|---|---|---|
| NC1[C@H]2CN(c3nc4c(cc3F)c(=O)c(C(=O)O)cn4-c3ccc(F)cc3F)C[C@@H]12 | 206 isolates (susceptible) | - | MIC90 | - | 64 µg/mL |
| Cc1nc(N)c2ncn([C@@H]3O[C@H](CO)[C@@H](O)[C@H]3O)c2n1 | Ciprofloxacin-resistant | - | MIC | - | 6.25 µg/mL |
| Cc1ccc(C)n1-c1ccsc1C(=O)NNC(=O)C(Cl)=C(Cl)Cl | H37Rv | BACTEC | inhibition | 12.5 µg/mL | 21% |
| c1ccc2c(c1)-c1ccccc1C21CCc2nc3c(nc2C1)CCC1(C3)c2ccccc2-c2ccccc21 | H37Rv | BACTEC | MIC bound | - | >12.5 µg/mL |
| Nc1nc(-c2ccccc2)c(N=Nc2cccc([N+](=O)[O-])c2)s1 | H37Rv | BACTEC | MIC bound | - | >6.25 µg/mL |
| CCCCCc1cc(OC)c2ccccc2n1 | MT10 | - | MIC | - | 167 µg/mL |
| CO[C@H]1/C=C/O[C@@]2(C)Oc3c(C)c(O)c4c(O)c(cc(OCC(=O)N(C)N5CCCCC5)c4c3C2=O)NC(=O)/C(C)=C\C=C\[C@H](C)[C@H](O)[C@@H](C)[C@@H](O)[C@@H](C)[C@H](OC(C)=O)[C@@H]1C | - | - | EC50 | - | 9.09 µg/mL |
| CCOC(=O)Cc1csc(NC(=O)C(SC(=S)N2CCCC2)c2ccccc2)n1 | H37Rv | - | MIC | - | >156 µg/mL |

Percent inhibition refers to the dose given; in toxicity tests it is the harm to the cells. Blank or dashed fields: not listed here. MIC bound comes from a single tested concentration. ECn: concentration that inhibits the pathogen or its effect by n%. Neighbouring rows are from separate reports.